Measured values from several laboratories, pooled; numbers as filed in NIAID ChemDB.

Common to all: enzyme or target tests; agent: HIV-1; protein: Reverse transcriptase; endpoint: IC50

a–b is a range or a potency band.

structure | strain | mutations | read by | result
CCN1c2ncc(CCOc3ccc(CC(=O)O)c4ccccc34)cc2C(=O)N(C)c2ccc(C)nc21 |  | RT-V106A | nucleotide incorporation / radiometric | >1 µM
CCc1ccc(-n2c(Br)nnc2SCC(=O)Nc2ccc(S(N)(=O)=O)cc2Cl)c2c1CCCC2 |  | RT-Y181C | nucleotide incorporation / radiometric | <0.05 µM
CCN1c2ncc(CCOc3ccc(CC(C)C(=O)O)c4ccccc34)cc2C(=O)N(C)c2ccc(F)nc21 |  | RT-V106A | nucleotide incorporation / radiometric | >1 µM
Cc1cc(S(=O)(=O)O)ccc1NC(=O)CSc1nnc(C(F)F)n1-c1ccc(C)c2c1CCCC2 |  | RT-Y181C | nucleotide incorporation / radiometric | >0.1 µM
CCN1c2ncc(CCOc3ccc(C(=O)O)c4c3CCN(C(=O)OC(C)(C)C)C4)cc2C(=O)N(C)c2cccnc21 | WT |  | nucleotide incorporation / radiometric | <0.1 µM
CCN1c2ncc(CCOc3ccc(N(C)c4ccc(C(=O)O)cc4)cc3C)cc2C(=O)N(C)c2cccnc21 | IIIB | RT-K103N Y181C | nucleotide incorporation / radiometric | 0.05–0.1 µM
CCN1c2ncc(CCOc3ccc(C(=O)O)c4c3CCC4)cc2C(=O)N(C)c2ccc(Cl)nc21 | WT |  | nucleotide incorporation / radiometric | <0.1 µM
CC(C)(N)C#Cc1ccc(NC(=O)CSc2nnnn2-c2cc(C(C)(C)C)cc(Br)c2Cl)c(Cl)c1 | WT |  | PicoGreen / fluorescence | <1 µM
CC(C)C[C@H](NC(=O)c1ccc(NC(=O)CSc2nnc(Br)n2-c2ccc(C3CC3)c3ccccc23)c(Cl)c1)C(=O)O |  |  | nucleotide incorporation / radiometric | <0.05 µM
CCN1c2ncc(CCOc3ccc(CCC(=O)O)c4ccccc34)cc2C(=O)N(C)c2ccc(F)nc21 |  | RT-K103N Y181C | nucleotide incorporation / radiometric | 0.1–1 µM
CCN1c2ncc(CCOc3ccc(N(CC(=O)O)C(C)=O)cc3C)cc2C(=O)N(C)c2cccnc21 | IIIB |  | nucleotide incorporation / radiometric | <0.05 µM
O=C(CSc1nnc(Br)n1-c1ccc(C2CCC2)c2ccccc12)Nc1ccc(C(=O)O)cc1Cl |  | RT-Y181C | nucleotide incorporation / radiometric | <0.05 µM
Cc1cc(NC(=O)COc2ccc(NC(=O)CSc3nnnn3-c3ccc(C(C)(C)C)cc3Cl)c(Cl)c2)no1 | WT |  | PicoGreen / fluorescence | <1 µM
Cc1cc(C)c2ccccc2c1-n1c(CF)nnc1SCC(=O)Nc1ccc(S(N)(=O)=O)cc1Cl |  | RT-Y181C | nucleotide incorporation / radiometric | <0.05 µM
CCN1c2ncc(CCOc3ccc(-c4cn(C)cn4)cc3C)cc2C(=O)N(C)c2cccnc21 | IIIB | RT-K103N Y181C | nucleotide incorporation / radiometric | <0.05 µM
CCc1ccc(-n2c(Br)nnc2SCC(=O)Nc2ccc(C(=O)NCC3CCCO3)cc2Cl)c2ccccc12 |  |  | nucleotide incorporation / radiometric | <0.05 µM
CCN1c2ncc(CCOc3ccc(-c4ccc[n+]([O-])c4C)cc3C)cc2C(=O)N(C)c2cccnc21 | IIIB | RT-K103N Y181C | nucleotide incorporation / radiometric | <0.05 µM
CCN1c2ncc(CCOc3ccc(CC(C)C(=O)O)c4ccccc34)cc2C(=O)Nc2c(C)ccnc21 |  | RT-Y188L | nucleotide incorporation / radiometric | >1 µM

2 of the rows above, restated:

CCN1c2ncc(CCOc3ccc(N(CC(=O)O)C(C)=O)cc3C)cc2C(=O)N(C)c2cccnc21 ; strain: IIIB ; read by: nucleotide incorporation / radiometric ; result: <0.05 µM
CCN1c2ncc(CCOc3ccc(C(=O)O)c4c3CCC4)cc2C(=O)N(C)c2ccc(Cl)nc21 ; strain: WT ; read by: nucleotide incorporation / radiometric ; result: <0.1 µM

Rows are shuffled and stem from different studies. ICn is the concentration giving n% inhibition. An empty or dashed field is not shown.